The values that follow come from patent US6649639B2, “Antipicornaviral compounds, compositions containing them, and methods for their use” (priority 1997, dated 2003).

Common to all, as to assay type: cell-based, human rhinovirus
Settings in all cases: CC50 divided by EC50

Data set [1] concerns HRV serotype-14. Description: Antirhinoviral HI-HeLa Cell Culture Assay (XTT cell protection), HRV-14. How it is done:
(§1) In the Cell Protection Assay, the ability of compounds to protect cells against HRV infection was measured by the XTT dye reduction method. This method is described in Weislow, O. S., Kiser, R., Fine, D. L., Bader, J., Shoemaker, R. H., Boyd, M. R., J. Natl. Cancer Inst. 1989, 81, 577-586, the disclosure of which is incorporated herein by reference.
(§2) Infected or mock-infected cells were suspended at 8×10^5 cells per mL and incubated with appropriate concentrations of compounds of formula I. Two days later, XTT/PMS was added to test plates, and the amount of formazan produced was quantified spectrophotometrically at 450/650 nm. […] The therapeutic index (TI) was calculated by dividing the CC50 by the EC50.
(§3) All strains of human rhinovirus (HRV) for use in this assay were purchased from American Type Culture Collection (ATCC) except for HRV serotype-14, which was produced from the infectious cDNA clone constructed and supplied to Applicants by Dr. Robert Rueckert at the Institute for Molecular Virology, University of Wisconsin, Madison, Wis. HRV stocks were propagated, and viral assays were performed in HI-HeLa cells (ATCC). Cells were grown in Minimal Essential Medium, available from Life Technologies, with 10% fetal bovine serum.
(§4) The compounds were tested against control compounds WIN 51711, WIN 52084, and WIN 54954, all obtained from Sterling-Winthrop Pharmaceuticals, and control compound Pirodavir, obtained from Janssen Pharmaceuticals. Antiviral data obtained for the test compounds are shown in Table 2 where all data are for HRV serotype-14 unless otherwise noted in parentheses.

Data set [2] has as its system HRV serotype 10. Put plainly: Antirhinoviral HI-HeLa Cell Culture Assay (XTT cell protection), HRV serotype 10. How it is done:
as §1, §2, §3, §4

The test system of data set [3] is HRV serotype 1A. Put plainly: Antirhinoviral HI-HeLa Cell Culture Assay (XTT cell protection), HRV serotype 1A. How it is done:
as §1, §2, §3, §4

Compound `CCOC(=O)/C=C/C(CCC(N)=O)NC(=O)C(CC(=O)C(CC(C)C)NC(=O)OCc1ccccc1)Cc1ccccc1` [Compound 1, Ethyl-3-(CBZ-L-LeuΨ[COCH2]-L-Phe-L-Gln)-E-Propenoate] displayed a TI in data set [1] of more than 889.
On to `CCOC(=O)C=CC(CCC(N)=O)NC(=O)C(CC(=O)C(NC(=O)SC(C)(C)C)C(C)C)Cc1ccc(F)cc1` (centres unmarked) [Compound 26], for which the TI in data set [1] was more than 200; in data set [2], more than 18; in data set [3] it was more than 20.
For `CCOC(=O)C=CC(CCC(N)=O)NC(=O)C(CC(=O)C(NC(=O)C1SCCS1)C(C)C)Cc1ccc(F)cc1` (centres unmarked) [Compound 27], in that order: more than 16, more than 0.3 and more than 0.5.
With `CC(C)C(NC(=O)SC1CCCC1)C(=O)CC(Cc1ccc(F)cc1)C(=O)NC(C=CC(=O)OCc1cccnc1)CCC(N)=O` (centres unmarked) [Compound 28], the TI is reported as more than 400 in data set [1], more than 10 in data set [2] and more than 16 in data set [3].
Take `CC(C)C(NC(=O)C1SCCS1)C(=O)CC(Cc1ccc(F)cc1)C(=O)NC(C=CC(=O)OCc1cccnc1)CCC(N)=O` (centres unmarked) [Compound 30]: in data set [1], the TI is given as more than 66.
As to `CCOC(=O)C=CC(CCC(N)=O)NC(=O)C(CC(=O)C(NC(=O)C1SCCCS1)C(C)C)Cc1ccc(F)cc1` (centres unmarked) [Compound 31], the TI is given as more than 18 in data set [1], more than 0.6 in data set [2] and more than 0.4 in data set [3].
For the compound `CC(C)C(NC(=O)SC(C)(C)C)C(=O)CC(Cc1ccc(F)cc1)C(=O)NC(C=CC(=O)OCc1cccnc1)CCC(N)=O` (centres unmarked) [Compound 32], the TI is more than 80 in data set [1], more than 16 in data set [2] and more than 14 in data set [3].
For the compound `CC(C)C(NC(=O)SC1CCCC1)C(=O)CC(Cc1ccc(F)cc1)C(=O)NC(C=CC(=O)OCCO)CCC(N)=O` (centres unmarked) [Compound 33], the TI was more than 62 in data set [1], more than 20 in data set [2] and more than 18 in data set [3].
For `CCOC(=O)C=CC(CCC(N)=O)NC(=O)C(CC(=O)C(NC(=O)c1cc(C)on1)C(C)C)Cc1ccc(F)cc1` (centres unmarked) [Compound 34], in that order: more than 30, more than 7 and more than 10.
